Test results: US10953028B2, “Method of treating heterotopic ossification” (THE REGENTS OF THE UNIVERSITY OF MICHIGAN, priority 2015, dated 2021)

How the values were obtained:
burn/tenotomy mice = assay: Burn/tenotomy trauma-induced HO model (microCT, histology, immunostaining); format: in vivo, mouse
Hif1α = Hif1α protein (Western blot) in tendon-derived mesenchymal cells cultured in hypoxia; format: cell-based, mouse; conditions: PX-478 10 μM or rapamycin 5 μM, 0.5% oxygen
[1] = system: Nfatc1-Cre/caACVR1fl:wt mice; assay: Genetic (congenital) HO model, ankle extra-skeletal bone by microCT
[2] = 9 weeks, PX-478 100 mg/kg i.p., control = 1.0

N[C@@H](Cc1ccc([N+]([O-])(CCCl)CCCl)cc1)C(=O)O
Hif1α expression in vivo (burn/tenotomy mice; 3 weeks after injury, PX-478): diminished
cartilage anlagen (histologic evaluation) (burn/tenotomy mice; 3 weeks after injury, PX-478): substantial decrease
expression of Sox9 in vivo (burn/tenotomy mice; 3 weeks after injury, PX-478): considerably diminished
total HO volume (burn/tenotomy mice; 5 weeks after injury, PX-478 100 mg/kg i.p. every other day, control 4.3 mm^3): 1.5 mm^3
total HO volume (burn/tenotomy mice; 9 weeks after injury, PX-478 100 mg/kg i.p. every other day, control 5.8 mm^3): 2.3 mm^3
soft tissue HO volume (burn/tenotomy mice; 9 weeks, PX-478 100 mg/kg i.p. every other day, control 0.90 mm^3): 0.00 mm^3
soft tissue HO normalized volume (burn/tenotomy mice; [2]): 0.0
total HO normalized volume (burn/tenotomy mice; [2]): 0.4
adverse effects on wound healing of the burn or hindlimb tenotomy sites (burn/tenotomy mice; PX-478 100 mg/kg i.p. every other day): no adverse effects
presence of mesenchymal progenitor cells and formation of mesenchymal condensation (H&E, PDGFRα and/or SOX9 immunostaining) (burn/tenotomy mice; three weeks after burn/tenotomy, PX-478 or rapamycin treatment): substantially diminished
Hif1α produced by mesenchymal cells isolated from tendon (Hif1α): significantly diminished
ankle extra-skeletal bone normalized volume ([1]; PX-478 100 mg/kg every other day for 2 weeks, control = 1.0): 0.32
ankle extra-skeletal bone volume ([1]; PX-478 100 mg/kg every other day from birth for 2 weeks, 800 Hounsfield Units, control 6.8 mm^3): 2.2 mm^3
